From patent US7074459B2, “Method for preserving wood” (priority 2003, dated 2006)

Columns and labels:
[1] = Percentage weight gain of wood after chemical treatment; conditions: 1% treatment, unleached
[2] = ASTM 1413 soil bottles with no fungus (monitor leaching of chemicals); conditions: 1% treatment, unleached, 12 weeks

SMILES: N=C(NCCCCCCNC(=N)NC(=N)Nc1ccc(Cl)cc1)NC(=N)Nc1ccc(Cl)cc1.On1ccccc1=S.On1ccccc1=S [Compound 6, chlorhexidinium di(2-mercapto-pyridine N-oxides)]
- WPG (%) Percentage Weight Gain after Chemical Treatment [1]: 4.050%
- Wt. Loss % (No Fungus) [2]: 1.14%
